Measured values from several laboratories, pooled; numbers as filed in NIAID ChemDB.

Common to all: whole-cell or culture tests; species: HIV-1

Lines come from different laboratories, so protocols vary. Blank or dashed fields: not listed here. ECn: concentration that inhibits the pathogen or its effect by n%.

| compound | strain or isolate | mutations | read-out | cell line | read by | result |
|---|---|---|---|---|---|---|
| COC(=O)N[C@H](C(=O)N[C@@H](Cc1ccccc1)[C@@H](O)CN(Cc1ccc(-c2ccccn2)cc1)NC(=O)[C@@H](NC(=O)OC)C(C)(C)C)C(C)(C)C | RF |  | EC50 | CEM + CEM-SS | RT activity | 0.00485 µM |
| Cc1ccc(-c2ccc3c(c2)C=C(C(=O)Nc2ccc(C[N+](C)(C)C4CCOCC4)cc2)CCC3)cc1 | BaL |  | EC90 | PBMC | p24 | 0.408 µM |
| O=c1[nH]cnc2c1ncn2[C@@H]1O[C@H](CO)C[C@@H]1F | RT P119S V179D L214F | RT-P119S V179D L214F | EC50 | MT-2 | p24 | 29 µM |
| CC(C)OC(=O)OCOP(=O)(CO[C@H](C)Cn1cnc2c(N)ncnc21)OCOC(=O)OC(C)C | IIIB |  | EC50 | MT-2 | XTT | 3.6 µM |
| CCC(C)Oc1cc(=O)[nH]c(Sc2ccc(F)cc2)n1 | IIIB |  | EC50 | MT-4 | cytopathic effect / MTT | 56 µM |
| O=c1[nH]cnc2c1ncn2[C@H]1CC[C@@H](CO)O1 | HXB2D |  | EC50 | MT-2 | p24 | 1.4 µM |
| Nc1cccc(CN2C(=O)N[C@H](CCc3ccccc3)[C@@H](O)[C@H]2Cc2ccccc2)c1 | RF |  | EC50 | MT-2 | cytopathic effect / MTT | <4.33 µM |
| Nc1nc(=O)n([C@H]2CO[C@@H](CO)S2)cc1F | HXB2D(RT-M184I) | RT-M184I | EC50 | CBMC | RT activity | 3.5 µM |
| Cc1cn([C@H]2CC[C@@H](CO)O2)c(=O)[nH]c1=O | IIIB |  | EC50 | MT-2 | cytopathic effect / XTT | >200 µM |
| CC(C)(C)NC(=O)[C@@H]1CCCN1C(=O)[C@@H](O)[C@H](Cc1ccccc1)NC(=O)[C@H](CC(N)=O)NC(=O)c1cnc2ccccc2n1 | IIIB |  | EC90 | MOLT-4/HIV-1(IIIB) + MOLT-4 | p24 | 1 µM |
| CC(C)CN(C[C@@H](O)[C@H](Cc1ccccc1)NC(=O)O[C@H]1CCOC1)S(=O)(=O)c1ccc(N)cc1 | 006 |  | EC50 | PBMC | p24 | 0.0543 µM |
| Cc1cn([C@H]2C[C@H](N=[N+]=[N-])[C@@H](CO)O2)c(=O)[nH]c1=O | BaL |  | EC50 | PBMC | cytopathic effect / XTT | 0.6 µM |
| Cc1cc(C#N)cc(C)c1Oc1nc(Nc2ccc(C#N)cc2)nc(N)c1Br | IIIB | E138K | EC50 | MT-4 | MTT | 0.007 µM |
| CCC(C)Oc1nc(N)cc(S(=O)(=O)c2ccccc2)n1 | IIIB |  | EC50 | MT-4 | cytopathic effect / MTT | 12 µM |
| Cn1cc(C(=O)N[C@@H](CC(N)=O)C(=O)N[C@@H](Cc2ccccc2)[C@H](O)C(=O)N2C[C@@H](Cl)C[C@H]2C(=O)NC(C)(C)C)c2ccccc21 | IIIB |  | EC50 | CEM | p24 | <0.2 µM |
| O=c1[nH]cnc2c1ncn2[C@H]1CC[C@@H](CO)O1 | HXB2 | RT-M184V | EC50 | MAGI (CCR5) + MAGI | β-galactosidase | 3.7 µM |
| CCC(C)Oc1cc(N)nc(S(=O)(=O)c2cc(C)cc(C)c2)n1 | IIIB |  | EC50 | MT-4 | cytopathic effect / MTT | >70 µM |
| Cc1cn([C@H]2C[C@H](N=[N+]=[N-])[C@@H](CO)O2)c(=O)[nH]c1=O | H257-6 (RT M41L T215Y) | RT-M41L T215Y | EC50 |  |  | 2.8 µM |
| CC(C)[C@H](NC(=O)c1ccc2ccccc2n1)C(=O)N[C@@H](Cc1ccccc1)[C@H](O)CN1CC[C@@H](OCc2ccncc2)C[C@H]1C(=O)NC(C)(C)C | HXB2 |  | EC50 | C8166 | p24 / ELISA / antigen | 0.0005 µM |
| CC1=C(C(=O)N(C)c2ccc(Cl)c(C(=O)OC(C)C)c2)SCCO1 | RF |  | EC50 | CEM + CEM-SS | cytopathic effect | >100 µM |
| COc1c(C)c2c(c(O)c1C/C=C(\C)CCC(=O)O)C(=O)OC2 | LAI |  | EC50 | PBMC | p24 | 0.95 µM |
| Cc1cc(-c2ccc(C#N)cc2)cc(C)c1Oc1ccnc(S(=O)(=O)CC(=O)Nc2ccc(C#N)cc2)n1 | IIIB | K103N | EC50 | MT-4 | MTT | 0.006 µM |
| Nc1nc2c(ncn2[C@H]2CO[C@@H](CO)O2)c(=O)[nH]1 |  | RT-K65R | EC50 | MT-2 | cytopathic effect / XTT | 12 µM |
| CC(C)(C)NC(=O)[C@@H]1C[C@H](Cl)CN1C(=O)[C@@H](O)[C@H](Cc1ccccc1)NC(=O)[C@H](CC(N)=O)NC(=O)c1cnc2ccccc2n1 | IIIB |  | EC90 | MOLT-4/HIV-1(IIIB) + MOLT-4 | p24 | 1.2 µM |
| Cn1cc(N)cc1C(=O)Nc1cc(C(=O)Nc2ccc3cc(S(=O)(=O)O)cc(S(=O)(=O)O)c3c2)n(C)c1 | A17 |  | EC50 | CEM + CEM-SS | cytopathic effect / XTT | 6.7 µM |
| Cc1cn([C@H]2C[C@H](N=[N+]=[N-])[C@@H](CO)O2)c(=O)[nH]c1=O | IIIB |  | EC50 | CEM + CEM-SS | cytopathic effect / XTT | 0.003 µM |
| Nc1nc(=O)n([C@@H]2CO[C@H](CO)S2)cc1F | 3887(RT-M184M/V) | RT-M184M/V | EC50 | CBMC | RT activity | 4 µM |
| Cc1c(O)cccc1C(=O)N[C@@H](CSc1ccccc1)[C@H](O)CN1C[C@H]2CCCC[C@H]2C[C@H]1C(=O)NC(C)(C)C | RF |  | EC50 | MT-2 | RT activity | 0.0259 µM |
| CCC(C)Oc1cc(N)nc(Sc2ccccc2Cl)n1 | IIIB |  | EC50 | MT-4 | cytopathic effect / MTT | >87 µM |
| N/C(=N/O)c1cccc(CN2C(=O)N(CC3CC3)[C@H](CCc3ccccc3)[C@@H](O)[C@H]2Cc2ccccc2)c1 | RF |  | EC50 | MT-2 | cytopathic effect / MTT | <0.036 µM |
| C#C[C@@]1(CO)C=C[C@H](n2cc(C)c(=O)[nH]c2=O)O1 | NL4-3 | RT-K103N | EC50 | MAGI (CCR5) + MAGI | β-galactosidase | 0.16 µM |
| Nc1cccc(CN2C(=O)N(Cc3cccc(N)c3)[C@H](Cc3ccccc3)[C@H](O)[C@H]2CCc2ccccc2)c1 | RF |  | EC50 | MT-2 | cytopathic effect / MTT | <0.365 µM |
| Nc1ccn([C@H]2CC[C@@H](CO)O2)c(=O)n1 | K65R(RT-K65R) | RT-K65R | EC50 | MT-2 | p24 | 1.3 µM |
| Cc1cc(/C=C/C#N)cc(C)c1Oc1ccnc(S(=O)(=O)CC(=O)Nc2ccc(F)cc2)n1 |  | L100I | EC50 | MT-4 | MTT | 0.033 µM |
| CCC(C)Oc1cc(N)nc(Sc2cc(C)cc(C)c2)n1 | IIIB |  | EC50 | MT-4 | cytopathic effect / MTT | >88 µM |
| Nc1nc(N)c2ncn([C@H]3CO[C@@H](CO)O3)c2n1 |  | RT-K65R Q151M | EC50 | PBMC | cytopathic effect / XTT | >250 µM |
| Nc1nc(NC2CC2)c2ncn([C@H]3C=C[C@@H](CO)C3)c2n1 | Recombinant | RT-M41L A62V S68N G112S V118I M184V | EC50 | HeLa | luciferase | 1.15 µM |
| COc1cccc2cc(C(=O)N[C@@H](CC(N)=O)C(=O)N[C@@H](Cc3ccccc3)[C@H](O)C(=O)N3C[C@@H](Cl)C[C@H]3C(=O)NC(C)(C)C)oc12 | IIIB |  | EC50 | MOLT-4/HIV-1(IIIB) + MOLT-4 | p24 | <0.58 µM |
| Cc1cn([C@H]2C=C[C@@H](CO)O2)c(=O)[nH]c1=O | IIIB |  | EC50 | MT-2 | cytopathic effect / XTT | 4.8 µM |
| Cc1ccnc2c1NC(=O)c1cccnc1N2C1CC1 | HxB2D(RT-D67G) | RT-D67G | EC50 | CBMC | RT activity | 0.013 µM |
| Cc1ccnc2c1NC(=O)c1cccnc1N2C1CC1 | IIIB | K103N | EC50 | MT-4 | MTT | >10.1 µM |
| Nc1ncnc2c1ncn2[C@@H]1O[C@H](CO)C[C@@H]1F | HXB2D |  | EC50 | MT-2 | p24 | 5 µM |
| Nc1cccc(CN2C(=O)N(Cc3ccc4[nH]nc(N)c4c3)[C@H](CCc3ccccc3)[C@@H](O)[C@H]2Cc2ccccc2)c1 | RF |  | EC50 | MT-2 | cytopathic effect / MTT | <0.053 µM |
| N#Cc1cc2[nH]c3ccccc3c2n(-c2ccc([N+](=O)[O-])cc2)c1=O | NL4-3 WT |  | EC50 | HeLa | luciferase | 0.156 µM |
| Cc1ccnc2c1NC(=O)c1cccnc1N2C1CC1 | NL4-3 |  | EC50 | CEM + CEM-SS | cytopathic effect / XTT | 0.02 µM |
| Cn1c2ccccc2c2c1cc(C#N)c(=O)n2-c1ccc([N+](=O)[O-])cc1 | NL4-3 WT |  | EC50 | HeLa | luciferase | 0.0451 µM |
| O=c1[nH]cnc2c1ncn2[C@H]1CC[C@@H](CO)O1 | RF |  | EC50 | MT-4 | cytopathic effect / MTT | 7.63 µM |

For reference, 3 entries again:

compound,strain or isolate,mutations,read-out,cell line,read by,result
Cc1ccnc2c1NC(=O)c1cccnc1N2C1CC1,HxB2D(RT-D67G),RT-D67G,EC50,CBMC,RT activity,0.013 µM
Cc1ccc(-c2ccc3c(c2)C=C(C(=O)Nc2ccc(C[N+](C)(C)C4CCOCC4)cc2)CCC3)cc1,BaL,,EC90,PBMC,p24,0.408 µM
Cc1cn([C@H]2C[C@H](N=[N+]=[N-])[C@@H](CO)O2)c(=O)[nH]c1=O,BaL,,EC50,PBMC,cytopathic effect / XTT,0.6 µM